PubChem BioAssay AID1259414, Drosophila RNAi Screening Center | 2018
Screen: 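Genome-wide screen for host control of endosymbiont load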 (primary screen). Cells: Drosophila JW18 cells infected with Wolbachia. Knock-down reagent: long dsRNA against Drosophila genes, 0.25 µg dsRNA per well of a 384-well plate. Timing: 5 days. Conditions: cells persistently infected with Wolbachia before knock-down; no added drug. Measurement: 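Imaged fluorescence in situ signal for Wolbachia 23S rRNA per DAPI-counted host cell, given as a robust z-score within each plate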. Direction: Wolbachia per cell robust z: higher = more Wolbachia per host cell than the plate typical. Active means: 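Hit when robust z is 1.5 or more, or -1.5 or less, in at least two of three replicates; excludes dsRNAs with several or no targets, genes not expressed in JW18 and well A1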.
The deposit covers about 24,000 reagents; this is a random part of those with a known target gene and a result. Over the whole deposit, about 1,210 (5%) are marked active. 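Inactive calls also include excluded dsRNAs with several or no targets, genes unexpressed in JW18, and well A1, regardless of score.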 Reagents against one gene are numbered here. Names joined by + are all predicted targets of the reagent.

gene	reagent no.	Wolbachia per cell robust z, rep 1	Wolbachia per cell robust z, rep 2	Wolbachia per cell robust z, rep 3	Call
ND-51L1 (GeneID 36998)	1	0.419	0.987	0.422	inactive
CG13186 (GeneID 36294)	1	-1.36	-0.975	-3.03	inactive
Scr (GeneID 40833)	1	-1.73	0.12	0.555	inactive
Scr (GeneID 40833)	2	0.145	0.649	2.28	inactive
nesd (GeneID 35298)	1	0.464	-0.254	0.966	inactive
nesd (GeneID 35298)	2	-0.0317	0.155	0.0431	inactive
Tengl3 (GeneID 33404)	1	-0.12	0.235	0.00235	inactive
Tengl3 (GeneID 33404)	2	0.525	-0.86	-5.61	inactive
CG6709 + Hez	1	-2.72	-0.115	-0.511	inactive
Best4 (GeneID 39660)	1	0.865	0.474	0.125	inactive
Best4 (GeneID 39660)	2	0.787	-0.213	0.0953	inactive
Best4 (GeneID 39660)	3	0.219	0.65	-0.229	inactive
Cdk4 (GeneID 36854)	1	0.565	0.362	0.272	inactive
Cdk4 (GeneID 36854)	2	1.62	0.858	0.977	inactive
CG5001 (GeneID 33308)	1	-0.488	-1.6	-0.792	inactive
CG5001 (GeneID 33308)	2	0.0564	1.21	-0.81	inactive
CG4676 (GeneID 36465)	1	0.492	0.0747	0.918	inactive
GatA (GeneID 42283)	1	0.167	-0.0136	1.06	inactive
CG34049 (GeneID 3885620)	1	-0.474	-0.142	-4.87	inactive
CG1371 (GeneID 36053)	1	-0.999	-0.179	-1.16	inactive
CG5114 (GeneID 39624)	1	0.408	-8.35	0.736	inactive
CG13933 (GeneID 38227)	1	-0.269	0.0941	0.491	inactive
bt (GeneID 43814)	1	-2.33	-0.692	-2.64	inactive
bt (GeneID 43814)	2	0.465	-1.57	-0.443	inactive
bt (GeneID 43814)	3	0.135	-1.06	1.44	inactive
Ocrl (GeneID 31157)	1	1.14	1.32	1.34	inactive
Pal2 (GeneID 37746)	1	-1.6	0.491	-0.204	inactive
Klp68D (GeneID 39332)	1	0.45	0.407	-0.268	inactive
Klp68D (GeneID 39332)	2	0.689	0.819	0.87	inactive
mago (GeneID 37402)	1	-1.89	-0.0758	0.0742	inactive
CG15403 (GeneID 33527)	1	0.876	-0.0252	-0.599	inactive
COX7AL (GeneID 40995)	1	0.809	-0.429	0.303	inactive
COX7AL (GeneID 40995)	2	-2.18	-1.06	-0.822	inactive
sub (GeneID 44870)	1	0.612	0.282	-1.41	inactive
jing (GeneID 35555)	1	0.941	0.325	0.764	inactive
jing (GeneID 35555)	2	0.616	0.985	-4.63	inactive
orb2 + CG43783	1	0.353	0.25	-0.128	inactive
orb2 + CG43783	2	0.199	-5.92	-0.527	inactive
CG14013 (GeneID 33786)	1	-5.24	0.133	1.05	inactive
Pink1 (GeneID 31607)	1	-0.741	2.13	-4.61	inactive
CG14069 (GeneID 34510)	1	-5.77	-2.79	-0.471	inactive
Coq6 (GeneID 33777)	1	0.142	0.786	0.0263	inactive
Coq6 (GeneID 33777)	2	-1	-0.11	-1.17	inactive
CG15643 (GeneID 32489)	1	0.645	1.19	0.401	inactive
CG15643 (GeneID 32489)	2	-8.66	0.277	0.85	inactive
sano (GeneID 37185)	1	-0.551	-1.11	-0.525	inactive
sano (GeneID 37185)	2	0.53	1.06	0.0845	inactive
CG7148 (GeneID 40432)	1	-0.28	-0.537	0.193	inactive
Ir68b (GeneID 39378)	1	0.668	0.543	-2.84	inactive
Pak3 (GeneID 41995)	1	3.37	1.5	3.52	active
Pak3 (GeneID 41995)	2	0.849	1.98	4.97	active
M1BP (GeneID 41042)	1	1.55	0.653	0.923	inactive
M1BP (GeneID 41042)	2	1.83	-0.0778	-0.103	inactive
Ak2 (GeneID 37834)	1	-1.95	-3.12	-4.07	inactive
hng2 (GeneID 41056)	1	0.898	-1.25	1.94	inactive
htk (GeneID 32877)	1	1.26	-0.137	0.62	inactive
htk (GeneID 32877)	2	-2.69	-2.82	0.493	active
htk (GeneID 32877)	3	1.46	1.18	1.44	inactive
Cyp9b2 (GeneID 35635)	1	-0.844	0.368	-4.89	inactive
Cyp9b2 (GeneID 35635)	2	1.15	-0.1	-0.0211	inactive
CG11345 (GeneID 38548)	1	-4.7	-1.49	2.08	inactive
CG11345 (GeneID 38548)	2	-0.65	-0.513	-0.502	inactive
Tengl2 (GeneID 318044)	1	-0.702	-0.549	-0.723	inactive
Tengl2 (GeneID 318044)	2	-0.293	1.11	0.898	inactive
CG14322 (GeneID 42124)	1	0.574	0.636	-0.0487	inactive
CG7094 (GeneID 35065)	1	-0.581	-0.452	-0.653	inactive
CG7094 (GeneID 35065)	2	-0.00307	-0.936	-0.276	inactive
CG7094 (GeneID 35065)	3	0.356	1.13	0.438	inactive

Looked up above.
Entry for CG7094 (GeneID 35065) #1 under “Wolbachia per cell robust z, rep 2”: -0.452
Under “Call”, htk (GeneID 32877) #1 is entered as inactive
Cyp9b2 (GeneID 35635) #2, Wolbachia per cell robust z, rep 1: 1.15
Tengl3 (GeneID 33404) #1, Wolbachia per cell robust z, rep 3 → 0.00235
CG4676 (GeneID 36465), Call → inactive
For “Call”, CG5001 (GeneID 33308) #1 is entered as inactive
